{"source": "paper PMC13638050", "about": "(PLOS Biology, 2026)", "binders": {"B1": {"name": "somatic 310-18G10 Fab with VH N35 reverted to VH S35 (Fab, V domains shown)", "VH": "QVQLVQSGAEVKKPGSSVKVSCKASGVTFSGYAISWVRQAPGQGLEWMGGISPLFGTPNLAQKFQGRVTFTADKSTSTDYMEVSSLRSEDTAVYYCVSTSEPGGLAVAGSRYFDYWGQGTLLTVSS", "VL": "LSVSPGERATLSCRASQSVSSNLAWYQQKPGQAPRLLIYGASTRAAGIPARFSGSGSGTEFTLTISSLQSEDFAVYYCQQYNDWPRTFGQGTKVEIR"}}, "molecular_target": "H1 stem (recombinant HA stem construct #4900 designed based on H1N1 A/Brisbane/59/2007 HA) (influenza A virus H1N1 …, biotin on the BirA biotinylation site (BirA kit))", "experiment": "BLI", "conditions": "both partners purified", "data": [{"binder": "B1", "values": [{"measurement": "fold weakening of the binding affinity against somatic 310-18G10", "result": "~4", "unit": "fold"}]}]}
